Only a part is listed here, and it is no random draw. The source made the active and inactive calls. No stated cut-off is given here; in the data, active means inhibition above about 50%; inactive means the rest.

This is an account of results in PubChem BioAssay AID1259343 (VanderVen Lab, College of Veterinary Medicine, Cornell …, 2017).

This experiment in a line: Mycobacterium tuberculosis growth inhibition, primary screen (AID 1259343). The note with it: at 10 µM, hits give high values.
Consider `Cc1cc(C)cc(OP(C)(N)=O)c1` (stereo not given), for which the inhibition is inactive: -9.69%.

Consider `CP(=O)(Nc1ccc(Br)cc1)Oc1ccccc1` (stereo not given), for which the inhibition was inactive: 22.8%.

As to `CP(=O)(Nc1ccc(Br)cc1)Oc1ccc(Cl)cc1` (stereo not given), the inhibition is inactive: 15.1%.

Take `Cc1ccc(NP(C)(=O)Oc2ccc(C(C)C)cc2)cc1C` (stereo not given): the inhibition is inactive: 40.4%.

For the molecule `COc1ccc(OP(C)(=O)Nc2ccc(Br)cc2)cc1` (stereo not given), the inhibition was active: 79.3%.
